Results of unrelated studies side by side (data: NIAID ChemDB).

All rows: whole-cell or culture tests; agent: HIV-1; read-out: EC50

An empty or dashed field is not shown.

compound	strain	mutations	cells	method	value
Cc1occc1C(=S)Nc1ccc(Cl)c(/C=N/OC(C)(C)C)c1	UC10-resistant (RT Y181C K101E)	RT-Y181C K101E	CEM + CEM-SS	cytopathic effect / XTT	>20 µM
COc1ccc(OC[C@@H]2CNCC[C@H]2c2ccccc2)cc1	IIIB	-	MOLT-3	syncytia	>4 µg/mL
CSc1ccccc1NC(=O)CSc1nnnn1-c1ccccc1SC	NL4.3-XCS	K103N (NVP)	HeLa CD4	β-galactosidase	0.789 µM
CN(C)CCC=C1c2ccccc2CCc2ccccc21	IIIB	-	MOLT-3	syncytia	>10 µg/mL
Cc1c(Sc2ccccc2)n(COCCO)c(=O)[nH]c1=O	IIIB	-	PBL(DAY 10) + PBL	p24	1.6 µM
O=c1[nH]cnc2c1ncn2[C@H]1CC[C@@H](CO)O1	HxB2D(RT-D67G)	RT-D67G	CBMC	RT activity	3 µM
C#C[C@@]1(CO)C=C[C@H](n2cc(C)c(=O)[nH]c2=O)O1	NL4-3	RT-K103N M184V	MAGI (CCR5) + MAGI	β-galactosidase	0.31 µM
O=c1[nH]cnc2c1ncn2C1CC[C@@H](CO)O1	LAI	-	Primary T lymphocytes	p24 / ELISA	11.5 µM
Cc1ccnc2c1NC(=O)c1cccnc1N2C1CC1	NL4.3-XCS	M184V (3TC-resistant)	HeLa CD4	β-galactosidase	0.044 µM
CCCCCCCCCCCCCC(=O)OC[C@H](COP(=O)(O)OP(=O)(O)OC[C@@H]1CC[C@H](n2cc(C)c(=O)[nH]c2=O)O1)OC(=O)CCCCCCCCCCCCC	A012B Clinical isolate	-	HT4 + HT4-6C	plaque count	8 µM
Cc1cc(S(N)(=O)=O)ccc1NC(=O)COc1ccc(Cl)cc1C(=O)c1cc(Cl)cc(C#N)c1	-	Wild type	MAGI	β-galactosidase	0.00052 µM
Cc1cn([C@H]2C[C@H](N=[N+]=[N-])[C@@H](CO)O2)c(=O)[nH]c1=O	IIIB/LAI	-	HuT-78 + HUT 78	antigen	0.008 µM
Cc1ccnc2c1NC(=O)c1cccnc1N2C1CC1	BaL	-	MAC	cytopathic effect / XTT	0.4 µM
COc1ccc(OC[C@H]2CNCC[C@@H]2c2ccccc2)cc1	IIIB	-	MOLT-3	p24	>4 µg/mL
Cc1cn([C@H]2C[C@H](N=[N+]=[N-])[C@@H](CO)O2)c(=O)[nH]c1=O	4246	-	CBMC	RT activity	0.008 µM
CCCCCN1CC[C@H](c2ccc(F)cc2)[C@@H](COc2ccc3c(c2)OCCO3)C1	IIIB	-	MOLT-3	syncytia	>4 µg/mL
Nc1nc(=O)n([C@@H]2CS[C@H](CO)O2)cc1F	-	K65R	Primary T lymphocytes	p24 / ELISA	0.5 µM
CCc1c(CC2CCCCC2)nc(SCC(=O)c2ccccc2)[nH]c1=O	IIIB	-	C8166	ELISA	0.0024 µM
Cc1ccc(-n2nnnc2-c2cn[nH]c2-c2cccc(F)c2)cc1	NL4.3-XCS	M184V (3TC-resistant)	HeLa CD4	β-galactosidase	0.666 µM
COC(=O)[C@H](C)NP(=O)(OC[C@@H]1C=C[C@H](n2cc(C)c(=O)[nH]c2=O)O1)Oc1ccc(Br)cc1	Y270-7 NNRTI-resistant clinical isolate	RT-Y188L	PBMC	p24	0.009 µM
O=C(O)/C=C/c1ccc[c]([Sb](=[O])([OH])[OH])c1	NL4-3 X4	-	MAGI	β-galactosidase	<20 µM
COC(=O)[C@H](C)NP(=O)(OC[C@@H]1C=C[C@H](n2cnc3c(N)ncnc32)O1)Oc1ccccc1	IIIB	-	MOLT-4/C8 + MOLT-4	syncytia	0.03 µM
C#C[C@]1(CO)O[C@@H](n2cnc3c(N)nc(F)nc32)C[C@@H]1O	Clinical isolate	C162Y	MT4-GFP	fluorescence	0.00063 µM
Cc1cccc(C)c1OCC(=O)N[C@@H](Cc1ccccc1)[C@@H](O)C[C@H](Cc1ccccc1)NC(=O)[C@H](C(C)C)N1CCCNC1=O	NL4-3	PR-L10I L33F M46I I54V L63P A71L V77I V82A L90M	HEK 293 + 293T	luciferase	1.434 µM
Cc1cn([C@H]2CC[C@@H](CO)O2)c(=O)[nH]c1=O	AZT-resistant A012C Clinical isolate	-	HT4 + HT4-6C	plaque count	185 µM
Nc1ccn([C@H]2CC[C@@H](CO)O2)c(=O)n1	RTMC(184) (RT D67N K70R M184V T215F K219Q)	RT-D67N K70R M184V T215F K219Q	HT4 + HT4 LacZ-1	plaque count	0.92 µM
COc1ccc(NC(=O)CSc2nnnn2-c2c(C)cc(C)cc2C)cc1Cl	NL4-3	WT	HeLa CD4	β-galactosidase	0.418 µM
Cc1cn([C@H]2C[C@H](N=[N+]=[N-])[C@@H](CO)O2)c(=O)[nH]c1=O	LAI	-	Primary T lymphocytes	p24 / ELISA	0.03 µM
Cc1cn([C@H]2C[C@H](N=[N+]=[N-])[C@@H](CO)O2)c(=O)[nH]c1=O	Q252-2 Clinical isolate ZDV-resistant	RT-M41L L210W T215Y	PBMC	p24	1.7 µM
Nc1nc(=O)n([C@@H]2CO[C@H](CO)S2)cc1F	3887(RT-M184M/V)	RT-M184M/V	CBMC	RT activity	4 µM
C[C@H]1/C=C/[C@@]2(C)CC[C@@H](C(C)(C)O)[C@@H]2[C@@H](O)C[C@](C)(O)/C=C/C1	95BRSP007 R5X4	-	U87 (CD4+ CCR5+ CXCR4+) + U87	cytopathic effect / XTT	~9 µM
Nc1ncnc2c1ncn2[C@H]1CC[C@@H](CO)O1	IIIB	-	MOLT-4/C8 + MOLT-4	syncytia	4 µM
OCCN1CCN(CC/C=C2/c3ccccc3Sc3ccc(C(F)(F)F)cc32)CC1	IIIB	-	MOLT-3	RT activity	<2 µg/mL
Cc1cn([C@H]2C=C[C@@H](CO)O2)c(=O)[nH]c1=O	NL4-3	RT-M184V	MAGI (CCR5) + MAGI	β-galactosidase	0.22 µM
OCCN1CCN(CC/C=C2\c3ccccc3Sc3ccc(C(F)(F)F)cc32)CC1	IIIB	-	MOLT-3	p24	<10 µg/mL
C/C=C/CSc1cc(NC(=S)c2ccsc2C)ccc1Cl	SK1	-	CEM + CEM-SS	cytopathic effect / XTT	0.08 µM
Nc1nc(=O)n([C@@H]2CS[C@H](CO)O2)cc1F	HXB2	-	HT4 + HT4 LacZ-1	plaque count	0.15 µM
O=c1c2ccccc2n2nnc3ccc(NCCCN4CCN(CCCNc5ccc6nnn7c8ccccc8c(=O)c5c67)CC4)c1c32	CLADE A	-	PBL	p24	0.0152 µM
Nc1nc(=O)n([C@H]2CO[C@@H](CO)S2)cc1F	HXB2D (RT-M184V)	RT-M184V	CBMC	RT activity	10 µM

5 of the rows above, restated:

compound,strain,mutations,cells,method,value
Nc1nc(=O)n([C@@H]2CS[C@H](CO)O2)cc1F,-,K65R,Primary T lymphocytes,p24 / ELISA,0.5 µM
COc1ccc(OC[C@@H]2CNCC[C@H]2c2ccccc2)cc1,IIIB,-,MOLT-3,syncytia,>4 µg/mL
Cc1ccnc2c1NC(=O)c1cccnc1N2C1CC1,NL4.3-XCS,M184V (3TC-resistant),HeLa CD4,β-galactosidase,0.044 µM
CCCCCCCCCCCCCC(=O)OC[C@H](COP(=O)(O)OP(=O)(O)OC[C@@H]1CC[C@H](n2cc(C)c(=O)[nH]c2=O)O1)OC(=O)CCCCCCCCCCCCC,A012B Clinical isolate,-,HT4 + HT4-6C,plaque count,8 µM
CCc1c(CC2CCCCC2)nc(SCC(=O)c2ccccc2)[nH]c1=O,IIIB,-,C8166,ELISA,0.0024 µM

ECn is the concentration giving n% inhibition of infection, replication or growth. Conditions beyond the fields shown may differ between rows.